{
  "source": "paper PMC10147936",
  "about": "“Dietary factors potentially impacting thiaminase I-mediated thiamine deficiency” (Scientific Reports, 2023)",
  "key": {"O=C(O)c1cccnc1": {"system": "O=C(O)c1cccnc1", "test": "purified protein", "conditions": "pH 6.5; 37.0 °C"}, "Cc1ncc(CO)c(CO)c1O": {"system": "Cc1ncc(CO)c(CO)c1O", "test": "purified protein", "conditions": "pH 6.5; 37.0 °C"}},
  "data": [
    {"substance": "thiaminase I from C. botulinum (BcmE) (Clostridium botulinum A str. Hall)", "values": [
      {"measurement": "Km", "setting": "O=C(O)c1cccnc1", "value": 84.2, "unit": "µM"},
      {"measurement": "Km", "setting": "Cc1ncc(CO)c(CO)c1O", "value": 14.6, "unit": "µM"}
    ]}
  ]
}
